For one series, the system named is soman-poisoning in rats. As to the kind of experiment: Protection of CPA injected 1 min after soman-poisoning in rats. The conditions noted are these: CPA 2 mg/kg i.m. alone, no soman, n = 2.
In series [1] the test system is release of ACh from a rat diaphragm endplate zone. As to the kind of experiment: In vitro release of ACh from rat diaphragm endplate zone. The conditions noted are these: 300 nM NECA.

`OC[C@H]1O[C@@H](n2cnc3c(NC4CCCC4)ncnc32)[C@H](O)[C@@H]1O` registered a Survival time in the series with soman-poisoning in rats above 24 h.

On to 5′-N-ethylcarboxamido-adenosine, for which, in series [1], the “decrease of the release of ACh” value is on record as 70%.
